A mixed list of measured activities; the numbers were collected in NIAID ChemDB.

Shared fields: tests in culture; species: Cryptococcus neoformans

A number after MIC or MFC names an inhibition level or a share of isolates.

structure	strain	endpoint	method	value
CC(=O)OC1C(=O)N(c2ccccc2)C1c1ccccc1	AH27/A	MIC	-	178 µM
CCCCn1nc(C)c(N=O)c1-c1cc(C)on1	-	MFC	-	2.4 µM
O=C(/C=C/c1ccccc1Cl)OC1CCN(CC(O)(Cn2cncn2)c2ccc(F)cc2F)CC1	BLS108	MIC80	broth dilution	0.498 µM
O=[N+]([O-])c1ccc(N2CCN(CCc3nnnn3CC(O)(Cn3cncn3)c3ccc(F)cc3F)CC2)cc1	LA314	MIC	-	8 µg/mL
CC(=O)O[C@@H]1C(=O)N(c2ccc(C(=O)O)cc2)[C@H]1c1ccc2c(c1)OCO2	AH27/A	MIC	-	135.5 µM
O[C@](Cn1cncn1)(Cn1cnc(/C=C/c2ccc(OCC(F)(F)C(F)F)cc2)n1)c1ccc(F)cc1F	TIMM0362	MIC	-	0.39 µg/mL
OCC1c2ccccc2SC1c1cc(Cl)ccc1O	93/V	MIC	-	25 µg/mL
O=C1c2c(O)ccc(O)c2C(=O)c2c(NCCNCCO)ccc(NCCNCCO)c21	NCPF 3379	MIC	-	32.9 µM
CN[C@H]1CC[C@@H](c2ccc(Cl)c(Cl)c2)c2ccccc21	C45	MFC	broth dilution	6 µg/mL
CC[C@H]1/C=C(\C)[C@H](O)[C@H](C)C[C@H](OC)[C@H]2O[C@@](O)(C(=O)C(=O)N3CCCC[C@H]3C(=O)O[C@H](/C(C)=C/[C@@H]3CC[C@@H](O)[C@H](OC)C3)[C@H](C)[C@@H](O)CC1=O)[C@H](C)C[C@@H]2OC	C20	MIC	-	6.25 µg/mL
COc1cccc(C2Sc3ccccc3C2CO)c1O	Farwania	MIC	-	12.5 µg/mL
CCCCCCCCCCCCCC(=O)NC(CCCN)C(=O)NC(CCCN)C(N)=O	ATCC 2344	MIC	broth dilution	25 µg/mL
CC(C)C(=N)CCC=C1CO[C@@](Cn2ccnc2)(c2ccc(F)cc2F)C1	A.34144	MIC	-	50 µg/mL
COc1ccccc1/C=C1\CSc2ccc(Cl)cc2C1=O	93/V	MIC	-	12.5 µg/mL
CC[C@@]1(O)C(=O)OCc2c1cc1n(c2=O)Cc2cc3c(CN(C)C)c(O)ccc3nc2-1	NCPF 3379	MIC	-	>100 µM
O=C(CCl)OC1CCN(CC(O)(Cn2cncn2)c2ccc(F)cc2F)CC1	BLS108	MIC80	broth dilution	9.66 µM
Cc1cc(-c2c(N=O)c(C)nn2CCO)no1	-	MFC	-	0.8 µM
COc1ccc(-c2sc3ccccc3c2CO)c(O)c1	Farwania	MIC	-	50 µg/mL
O=C1/C(=C/c2ccc3c(c2)OCO3)COc2ccc(-c3ccccc3)cc21	Farwania	MIC	-	50 µg/mL
CCCCCOc1ccc(-c2cc(-c3ccc(C(=O)N[C@H]4C[C@@H](O)[C@@H](O)NC(=O)[C@@H]5[C@@H](O)[C@@H](C)CN5C(=O)[C@H]([C@H](O)CC(N)=O)NC(=O)[C@H]([C@H](O)[C@@H](O)c5ccc(O)c(OS(=O)(=O)O)c5)NC(=O)[C@@H]5C[C@@H](O)CN5C(=O)[C@H]([C@@H](C)O)NC4=O)cc3)no2)cc1	TIMM0354	MIC	-	>64 µg/mL
CCCCCCCCCC(=O)NC(CCCN)C(=O)NC(CCCN)C(=O)NC(CCCN)C(N)=O	ATCC 2344	MIC	broth dilution	100 µg/mL
CCCCCOc1ccc(-c2cc(-c3ccc(C(=O)N[C@H]4C[C@@H](O)[C@@H](O)NC(=O)[C@@H]5[C@@H](O)[C@@H](C)CN5C(=O)[C@H]([C@H](O)CC(N)=O)NC(=O)[C@H]([C@H](O)[C@@H](O)c5ccc(O)c(OS(=O)(=O)O)c5)NC(=O)[C@@H]5C[C@@H](O)CN5C(=O)[C@H]([C@@H](C)O)NC4=O)cc3)no2)cc1	FMR 8409	MIC	-	64 µg/mL
Cn1nc(Cc2ccc(Cl)cc2)c2ccccc2c1=O	Clinical isolate (IM 000319)	MIC50	broth dilution	31.3 µg/mL
Clc1ccc(COC(Cn2ccnc2)c2ccc(Cl)cc2Cl)c(Cl)c1	-	MFC	-	0.9 µM
CCC(C)CC(C)CCCCCCCCC(=O)N[C@H]1C[C@@H](O)[C@H](NCCN)NC(=O)[C@@H]2[C@@H](O)CCN2C(=O)[C@H]([C@H](O)CCN)NC(=O)[C@H]([C@H](O)[C@@H](O)c2ccc(O)cc2)NC(=O)[C@@H]2C[C@@H](O)CN2C(=O)[C@H]([C@@H](C)O)NC1=O	C297	MIC	broth dilution	>16 µg/mL
CC(C)C(=O)CCC[C@@H]1CO[C@@](Cn2cccc2)(c2ccc(F)cc2F)C1	IFM.40092	MIC	-	>100 µg/mL
CC(=O)OC1C(=O)N2CCCSC12c1ccccc1	AH27/A	MIC	-	90.25 µM
N=C(N)c1ccc2nc(-c3ccc(-c4nc5ccc(C(=N)N)cc5[nH]4)[nH]3)[nH]c2c1	H99	MIC	-	0.78 µg/mL
CCn1nc(C)c([N+](=O)[O-])c1-c1cc(C)on1	-	MIC	-	>200 µM
O=C1/C(=C/c2ccc(O)cc2)COc2ccccc21	25	MIC	-	6 µg/mL
OC(Cn1cncn1)(Cn1nnnc1CCN1CCN(C(c2ccccc2)c2ccccc2)CC1)c1ccc(F)cc1F	LA314	MIC	-	>16 µg/mL
COc1cc(NS(=O)(=O)c2ccc(N)cc2)ncn1	IFM 40215	MIC	-	≥256 µg/mL
C[C@H](n1nnc(CCN2CCN(C(c3ccccc3)c3ccccc3)CC2)n1)[C@](O)(Cn1cncn1)c1ccc(F)cc1F	LA314	MIC	-	>16 µg/mL
OCC1c2ccccc2SC1c1ccccc1O	Isolate 25	MIC	-	6 µg/mL
Cc1noc(NS(=O)(=O)c2ccc(N)cc2)c1C	IFM 49722	MIC	-	128 µg/mL
COc1cccc(-c2sc3ccccc3c2CO)c1O	Farwania	MIC	-	50 µg/mL
COc1cc(/C=C2\COc3ccccc3C2=O)ccc1O	93/V	MIC	-	25 µg/mL
NC(=S)NC1N=C(c2ccccc2)SN1	-	MIC	-	32 µg/mL
COc1cc(O)c2c(c1)C(=O)c1c(cc3c(c1O)-c1c(cc(C)c(C(=O)NC(C)C(=O)O)c1O)[C@H](OC1OC(C)C(N(C)C)C(OC4OCC(O)C(O)C4O)C1O)[C@H]3O)C2=O	D49	MIC	-	0.8 µg/mL
C=C1CO[C@H]2[C@@H](C)OC(OC[C@@]34C[C@H]5[C@H](C)CC[C@@H]5[C@@]5(C=O)C[C@@H]3C=C(C(C)C)[C@@]45C(=O)O)C[C@@H]12	15 strains (serotype B)	MIC90	-	1 µg/mL
CCn1nc(-c2cc(C)on2)cc1C	-	MIC	-	>200 µM
O=c1c(N2CCOCC2)c(N2CCN(S(=O)(=O)Cc3ccccc3)CC2)cnn1-c1ccccc1	C297	MIC	broth dilution	200 µg/mL
COc1ccc(NS(=O)(=O)c2ccc(N)cc2)nn1	IFM 51976	MIC	-	128 µg/mL
CC(C)C(=N)CCC[C@H]1CO[C@@](Cn2cccc2)(c2ccc(F)cc2F)C1	IFM.40092	MIC	-	12.5 µg/mL
CCC(C)CC(C)CCCCCCCCC(=O)N[C@H]1C[C@@H](O)[C@H](NCCN)NC(=O)[C@@H]2[C@@H](O)CCN2C(=O)[C@H]([C@H](O)CCN)NC(=O)[C@H]([C@H](O)[C@@H](O)c2ccc(O)cc2)NC(=O)[C@@H]2C[C@@H](O)CN2C(=O)[C@H]([C@@H](C)O)NC1=O	19 isolates	MIC50	-	32 µg/mL
CCCCCCCCCCCC(=O)NC(CCCN)C(N)=O	ATCC 2344	MIC	broth dilution	>100 µg/mL
C[C@@H]([C@@](O)(Cn1cncn1)c1ccc(F)cc1F)S(C)(=O)=O	R718 (AZOLE-R)	MIC	-	>1000 µM
C[C@@H](n1cnc2cc(Cl)ccc2c1=O)[C@](O)(Cn1cncn1)c1ccc(F)cc1F	Isolate 114.96	MIC	-	0.156 µg/mL
CCc1ccc(/C=C2\CCc3ccccc3C2=O)cc1	Farwania	MIC	-	12.5 µg/mL
CCCCCCCCCC(=O)NC(CCCN)C(N)=O	ATCC 2344	MIC	broth dilution	>100 µg/mL
O=C(/C=C/c1ccccc1Br)OC1CCN(CC(O)(Cn2cncn2)c2ccc(F)cc2F)CC1	BLS108	MIC80	broth dilution	0.458 µM
C[C@H]1[C@H](O)[C@@H](C)/C=C/C=C/C=C/C=C/C=C/C=C/C=C/[C@H](O[C@@H]2O[C@H](C)[C@@H](O)[C@H](N)[C@@H]2O)C[C@@H]2O[C@](O)(C[C@@H](O)C[C@@H](O)CC[C@H](O)[C@@H](O)C[C@@H](O)CC(=O)O[C@H]1C)C[C@H](O)[C@H]2C(=O)O	37 strains	MIC90	-	0.125 µg/mL
C[C@@H](c1ncncc1F)[C@](O)(Cn1cncn1)c1ccc(F)cc1F	B 29739	MIC	broth dilution	0.008 µg/mL
CCCCCCCCCCCCCCCC(=O)NC(CCCN)C(N)=O	ATCC 2344	MIC	broth dilution	>100 µg/mL
CC[C@@H]([C@H](C)O)n1ncn(-c2ccc(N3CCN(c4ccc(OC[C@@H]5CO[C@@](Cn6cncn6)(c6ccc(F)cc6F)C5)cc4)CC3)cc2)c1=O	DUMC 133.95	MIC	-	0.25 µg/mL
CCCCCCCCCCCCCCCC(=O)NC(CCCN)C(=O)NC(CCCN)C(=O)NC(CCCN)C(=O)NC(CCCN)C(=O)NC(CCCN)C(N)=O	ATCC 2344	MIC	broth dilution	6.25 µg/mL
CCOc1ccc(/C=C2\CCc3ccccc3C2=O)cc1	25	MIC	-	12.5 µg/mL
CC(C)C(=O)CCC[C@H]1CO[C@@](Cn2ccnc2)(c2ccc(F)cc2F)C1	IFM.40092	MIC	-	<0.1 µg/mL
COC(=O)[C@H]1[C@@H]2C[C@@H](O[C@@H]3O[C@H](C)[C@@H](O)[C@H](N)[C@@H]3O)/C=C/C=C/C=C/C=C/C=C/C=C/C=C/[C@H](C)[C@@H](O)[C@H](C)[C@H](C)OC(=O)C[C@H](O)C[C@H](O)[C@@H](O)CC[C@H](O)C[C@H](O)C[C@](O)(C[C@@H]1O)O2	Clinical isolate (capsule-negative)	MIC	-	10.1 µM
Cc1nnc(NS(=O)(=O)c2ccc(N)cc2)s1	IFM 51976	MIC	-	≥256 µg/mL
CCC(C)n1ncn(-c2ccc(N3CCN(c4ccc(OC[C@H]5CO[C@](Cn6cncn6)(c6ccc(Cl)cc6Cl)O5)cc4)CC3)cc2)c1=O	A28201	MIC	-	≤0.007 µg/mL
O=C(/C=C/c1ccc(F)cc1)OC1CCN(CC(O)(Cn2cncn2)c2ccc(F)cc2F)CC1	BLS108	MIC80	broth dilution	0.129 µM
OCC1c2ccccc2SC1c1ccccc1	Farwania	MIC	-	12.5 µg/mL
CC(=O)OC1C(=O)N(c2ccccc2)C1c1ccc([N+](=O)[O-])cc1	AH27/A	MIC	-	18.4 µM
CCCC(C)(C)C(=O)OC1CCN(CC(O)(Cn2cncn2)c2ccc(F)cc2F)CC1	BLS108	MIC80	broth dilution	0.573 µM
COc1cc(NC(C)CCCN)c2nc(C(C)(C)C)cc(C)c2c1Oc1cccc(C(F)(F)F)c1	-	EC50	-	2 µg/mL
C[C@@H](n1ncn(-c2ccc(OCC(F)(F)C(F)F)cc2)c1=O)[C@](O)(Cn1cncn1)c1ccc(F)cc1F	DUMC 123.96	MFC	-	>16 µg/mL
O=C(OC1CCN(CC(O)(Cn2cncn2)c2ccc(F)cc2F)CC1)C(F)(F)F	BLS108	MIC80	broth dilution	36.9 µM
Cc1cc(-c2nn(C)c(C)c2N=O)no1	-	MIC	-	3.1 µM
C[C@H](n1nnc(CCN2CCN(c3ccc([N+](=O)[O-])cc3)CC2)n1)[C@](O)(Cn1cncn1)c1ccc(F)cc1F	LA314	MIC	-	4 µg/mL
COc1ccc(O)c(C2Sc3ccccc3C2CO)c1	93/V	MIC	-	50 µg/mL

For reference, 5 entries again:

structure,strain,endpoint,method,value
O=C(/C=C/c1ccccc1Cl)OC1CCN(CC(O)(Cn2cncn2)c2ccc(F)cc2F)CC1,BLS108,MIC80,broth dilution,0.498 µM
COc1cc(NS(=O)(=O)c2ccc(N)cc2)ncn1,IFM 40215,MIC,-,≥256 µg/mL
OCC1c2ccccc2SC1c1ccccc1,Farwania,MIC,-,12.5 µg/mL
CCc1ccc(/C=C2\CCc3ccccc3C2=O)cc1,Farwania,MIC,-,12.5 µg/mL
CC(=O)OC1C(=O)N2CCCSC12c1ccccc1,AH27/A,MIC,-,90.25 µM

An empty or dashed field is not shown. Conditions beyond the fields shown may differ between rows. ECn is the concentration giving n% inhibition of infection, replication or growth.